Where two headings read alike, the source gives them in different places.

The test system of the experiment is JEV strain AT31.
[1] abbreviates: Primary screening of 1034 compounds in the natural extracts library.
Where [2] appears, read: primary screening of 1034 compounds in the natural extracts library, red numbers = obvious cytotoxicity, blue numbers = insoluble in DMSO (colours not visible).

As for `C[C@@H]1O[C@@H](O[C@H]2[C@H](O[C@H]3CC[C@@]4(C)[C@@H](CC[C@]5(C)[C@@H]4CC=C4[C@@H]6CC(C)(C)CC[C@]6(C(=O)O[C@@H]6O[C@H](CO[C@@H]7O[C@H](CO)[C@@H](O)[C@H](O)[C@H]7O)[C@@H](O)[C@H](O)[C@H]6O)CC[C@]45C)[C@]3(C)CO)OC[C@H](O)[C@@H]2O)[C@H](O)[C@H](O[C@@H]2O[C@H](CO)[C@@H](O)[C@H](O)[C@H]2O)[C@H]1O` [Macranthoidin A], the “Inhibition (%)” value under setting [1] was -3.651%.

Consider Clinodiside A, for which the “Inhibition (%)” value under setting [2] is given as -20.1623%.

Turning to `COC1CC(OC2CCC3(C)C(CCC45CCC(C6=CC(=O)OC6)C(C)(CCC43)C5=O)C2)OC(C)C1O` (stereo not shown) [Oleaside A], under setting [1], the “Inhibition (%)” value is given as 3.4363%.

Turning to `COc1cc2c(c(OC)c1OC)-c1c(cc(OC)c(OC)c1OC)C[C@](C)(O)[C@@H](C)C2` [Schizandrol A], the “Inhibition (%)” value under setting [1] is on record as 39.8936%.

`C[C@@H]1O[C@@H](O[C@H]2[C@H](O[C@H]3CC[C@@]4(C)[C@@H](CC[C@]5(C)[C@@H]4CC=C4[C@@H]6CC(C)(C)CC[C@]6(C(=O)O[C@@H]6O[C@H](CO[C@@H]7O[C@H](CO)[C@@H](O[C@@H]8O[C@@H](C)[C@H](O)[C@@H](O)[C@H]8O)[C@H](O)[C@H]7O)[C@@H](O)[C@H](O)[C@H]6O)CC[C@]45C)[C@]3(C)CO)OC[C@H](O)[C@@H]2O)[C@H](O)[C@H](O)[C@H]1O` [Hederacoside C]: the “Inhibition (%)” value under setting [1] is 9.195%.

With `CC(C)(O)[C@@H]1CC[C@](C)([C@H]2[C@@H](O)C[C@@]3(C)[C@@H]4C[C@H](O)[C@H]5C(C)(C)[C@@H](O)CC[C@@]56C[C@@]46CC[C@]23C)O1` [Cycloastragenol], under setting [1], the “Inhibition (%)” value is 38.012%.

Turning to `O=C(O)C1=CO[C@@H](O[C@@H]2O[C@H](CO)[C@@H](O)[C@H](O)[C@H]2O)[C@@H]2C(CO)=C[C@H](O)[C@H]12` [Desacetyl asperulosidic acid], the “Inhibition (%)” value under setting [1] is reported as 33.2744%.

`COc1cc2c(cc1O)C[C@H]1c3cc(O)c(OC)cc3CC[N+]1(C)C2.[Cl-]` (stereo partly shown) [Phellodendrine chloride]: the “Inhibition (%)” value under setting [1] is listed as -2.77%.

`C[C@@H](CO)[C@@H]1CC[C@@]2(CC[C@]3(C)[C@H](CC[C@@H]4[C@@]5(C)CC[C@H](O[C@@H]6O[C@H](CO)[C@@H](O)[C@H](O)[C@H]6O[C@@H]6O[C@H](CO)[C@@H](O)[C@H](O)[C@H]6O)[C@@](C)(CO[C@@H]6O[C@H](CO)[C@@H](O)[C@H](O)[C@H]6O)[C@@H]5CC[C@]43C)[C@H]2O)CO1` [Hosenkoside A]: under setting [1], the “Inhibition (%)” value was found to be 9.413%.

`COc1c2c(cc3oc(C)cc(=O)c13)O[C@H](C(C)(C)O)C2` [5-O-methylvisamminol]: under setting [1], the “Inhibition (%)” value was -0.6273%.

Turning to Sodium Aescinate, the “Inhibition (%)” value under setting [2] was found to be 42.9768%.

Consider `C[C@@H]1O[C@@H](O[C@H]2[C@H](Oc3cc(O)c4c(c3)O[C@H](c3ccc(O)cc3)CC4=O)O[C@H](CO)[C@@H](O)[C@@H]2O)[C@H](O)[C@H](O)[C@H]1O.O` [Naringin Hydrate], for which the “Inhibition (%)” value under setting [1] was determined as 13.8686%.

As for `CCN1C[C@@]2(COC)[C@H]3[C@@H](OC)[C@H]4C1[C@]3([C@@H](OC)C[C@H]2OC(C)=O)[C@@H]1C[C@@]2(O)[C@H](OC(=O)c3ccccc3)[C@@H]1[C@]4(OC(C)=O)[C@@H](O)[C@@H]2OC` [Acetylaconitine], under setting [1], the “Inhibition (%)” value was determined as 17.0568%.

For `COc1ccc(/C=C/c2cc(O)cc(O)c2)cc1O[C@@H]1O[C@H](CO)[C@@H](O)[C@H](O)[C@H]1O` [Rhapontigenin 3'-O-glucoside], the “Inhibition (%)” value under setting [1] is on record as 38.2315%.

Regarding `O=c1c(O[C@@H]2O[C@H](CO)[C@@H](O)[C@H](O)[C@H]2O)c(-c2ccc(O)c(O)c2)oc2cc(O)cc(O)c12`, the “Inhibition (%)” value under setting [1] was determined as 8.905%.

In the case of `COc1ccc(/C=C/c2cc(O)cc(O[C@@H]3O[C@H](CO)[C@@H](O)[C@H](O)[C@H]3O)c2)cc1O` [Rhaponticin], the “Inhibition (%)” value under setting [1] came out at 78.3102%.

For `OC[C@@H](O)[C@H](O)[C@H](O)[C@@H](O)CO` [ducitol], the “Inhibition (%)” value under setting [1] was 15.4889%.

For `CCCCCCC[C@H](O)CC(=O)CCc1ccc(O)c(OC)c1` [8-Gingerol], the “Inhibition (%)” value under setting [1] is given as -15.7251%.

Turning to `CCC/C=C1\OC(=O)C2=C1CC[C@@H](O)[C@@H]2O` [Senkyunolide I], the “Inhibition (%)” value under setting [1] is recorded as 4.329%.

In the case of `CCCCCCCCCCCC(=O)CC(O)S(=O)(=O)[O-].[Na+]` (stereo not shown) [Sodium new houttuyfonate], the “Inhibition (%)” value under setting [1] amounted to 43.6171%.

In the case of `COC(=O)[C@H](O)[C@@H](NC(=O)c1ccccc1)c1ccccc1`, the “Inhibition (%)” value under setting [1] is reported as -15.0308%.

`C=C(CCC=C(C)C)[C@H]1CC[C@]2(C)[C@@H]1[C@H](O)C[C@@H]1[C@@]3(C)CC[C@H](O[C@@H]4O[C@H](CO)[C@@H](O)[C@H](O)[C@H]4O[C@@H]4O[C@H](CO)[C@@H](O)[C@H](O)[C@H]4O)C(C)(C)[C@@H]3CC[C@]12C` [Ginsenoside Rk1]: under setting [1], the “Inhibition (%)” value is reported as -23.9454%.

As to `C[C@@H]1CC[C@@]2(OC1)O[C@H]1C[C@H]3[C@@H]4CC[C@H]5C[C@@H](O)[C@H](O)C[C@]5(C)[C@H]4CC[C@]3(C)[C@H]1[C@@H]2C` [Gitogenin], under setting [1], the “Inhibition (%)” value worked out at 1.152%.

`CO[C@H]1C[C@H](O[C@H]2CC[C@]3(C)[C@H]4CC[C@]5(C)[C@@H](C6=CC(=O)OC6)CC[C@]5(O)[C@@H]4CC[C@]3(O)C2)O[C@H](C)[C@H]1O[C@@H]1O[C@H](CO)[C@@H](O)[C@H](O)[C@H]1O` [Periplocin]: the “Inhibition (%)” value under setting [1] worked out at 55.5992%.

Regarding `COc1ccc(-c2cc(=O)c3c(O)c(OC)c(O)c(OC)c3o2)cc1` [Lysionotin], under setting [1], the “Inhibition (%)” value is listed as -5.768%.

As for `COC(=O)C=Cc1ccc(O)cc1` [Methyl 4-hydroxycinnamate], under setting [1], the “Inhibition (%)” value is -4.744%.

On to `O=C(O)C(O)C(O)C(=O)O` (stereo not drawn) [D(-)-Tartaric acid], for which the “Inhibition (%)” value under setting [1] is reported as -8.496%.

For `CCCCCCCC/C=C\CCCCCCCC(=O)O` [cis-9-Octadecenoic acid], under setting [1], the “Inhibition (%)” value is 10.1533%.

These data come from paper PMC7038234, “Screening of Natural Extracts for Inhibitors against Japanese Encephalitis Virus Infection” (Antimicrobial Agents and Chemotherapy, 2020).
